Results of unrelated studies side by side (data: NIAID ChemDB).

Common to all: growth or infection tests; species: Mycobacterium tuberculosis

Inhibition is in % at the dose shown (toxicity tests: loss of growth or viability). Two numbers with a dash give a range or band. A number after MIC or MFC names an inhibition level or a share of isolates. MIC bound: limit read from a one-dose screen. Lines come from different laboratories, so protocols vary. An empty or dashed field is not shown. ECn: concentration that inhibits the pathogen or its effect by n%.

smiles | mutations | read-out | tested at | conditions | read by | strain | value
Cc1nn(C(=O)c2ccc(Cl)cc2)c2c1C(c1ccc(Cl)cc1)SC(N)=N2 | - | inhibition | 12.5 µg/mL | - | BACTEC | H37Rv | 18%
COc1cc(Cc2cnc(/N=C3\C(=O)N(CN4CCN(c5c(F)cc6c(=O)c(C(=O)O)cn(C7CC7)c6c5F)CC4C)c4ccc(F)cc43)nc2N)cc(OC)c1OC | - | MIC | - | - | - | H37Rv | 3.13 µg/mL
CCOC(=O)C(=O)Nc1c(N(CC)CC)n2ccccc2nc1=O | - | inhibition | 6.25 µg/mL | - | resazurin | H37Rv | 13%
COc1cc(/C=C/[N+](=O)[O-])cc(Br)c1OC | - | MIC | - | - | - | H37Rv | 500 µg/mL
CC(C)c1ccc2c(c1)CCC1[C@@](C)(CO)CCC[C@@]21C | - | MIC | - | - | - | H37Rv (ATCC 27294) | 32 µg/mL
O=c1[nH]c2ccc(CC(=S)N3CCOCC3)cc2s1 | - | inhibition | 6.25 µg/mL | - | resazurin | H37Rv | 64%
CC1(C)CC(=NO)C2[Se]ON=C2C1 | - | MIC | - | - | - | H37Rv | 4.23 µg/mL
CCN1C2=NCCN2S(=O)(=O)c2ccccc21 | - | MIC bound | - | - | - | H37Rv | >6.25 µg/mL
C=C[C@]1(C)CCC2=C(CCC3[C@](C)(COC(=O)CC(=O)OC)CCC[C@@]23C)C1 | - | MIC | - | - | - | H37Rv (ATCC 27294) | 4 µg/mL
COc1cc(C(=O)OC2CC(C)=CCC3(C)CCC(O)(C(C)C)C23)ccc1O | - | MIC | - | - | - | H37Rv | 8 µg/mL
O=C(C[n+]1ccccc1)NNC(=O)/C(=C/c1ccc2c(c1)OCO2)NC(=O)c1ccccc1.[Cl-] | - | MIC bound | - | - | BACTEC | H37Rv | >12.5 µg/mL
NC(=O)c1cnccn1 | - | MIC | - | - | - | H37Rv | 25 µg/mL
O=C1/C(=C/c2cccc(Br)c2)Cc2ccccc21 | - | inhibition | 12.5 µg/mL | - | broth dilution / resazurin | H37Rv | 51%
CC(=O)n1c(=O)c(=O)[nH]c2ccccc21 | - | MIC | - | - | resazurin | H37Rv | 8.561 µg/mL
Cc1cn([C@@H]2C[C@@H](N=[N+]=[N-])[C@H](COP(=O)(OCCC#N)O[C@H]3CC[C@@]4(C)C(=CC[C@H]5[C@@H]6CC[C@H](C(C)CCCC(C)C)[C@@]6(C)CC[C@@H]54)C3)O2)c(=O)[nH]c1=O | - | inhibition | 12.5 µg/mL | - | BACTEC | H37Rv | 0%
CCCCC[C@H]1CCCCCCCCCC(=O)O[C@H]2[C@H](O)[C@@H](CO)OC(O[C@H]3[C@H](O1)O[C@H](C)[C@H](O)[C@@H]3O)[C@@H]2OC1O[C@@H](C)[C@H](OC(=O)[C@H](C)[C@@H](C)O)[C@@H](OC2O[C@@H](C)[C@H](O)[C@@H](O)[C@H]2O)[C@H]1OC(=O)C(C)CC | - | MIC | - | - | - | - | 32 µg/mL
COc1cc(C(=O)NC(=S)Nc2csc(-c3ccc(F)cc3)n2)cc(OC)c1OC | - | inhibition | 6.25 µg/mL | - | resazurin | H37Rv | 3%
C=C[C@@H](O)C#CC#CC[C@H]1O[C@H]1CCCCCCC | - | EC50 | - | - | resazurin | H37Ra | 23.5 µM
COc1c(O)cc2oc(-c3ccccc3)cc(=O)c2c1O | - | MIC | - | - | BACTEC | H37Rv | >100 µg/mL
Cn1nc(Cc2ccc(Cl)cc2)n(N)c1=O | - | inhibition | 12.5 µg/mL | - | BACTEC | H37Rv | 0%
CC1=CC[C@@]2(C)CC[C@@](O)(C(C)C)[C@@H]2[C@@H](OCC(=O)c2ccccc2)C1 | - | EC90 | - | - | broth dilution | - | 0.69 µg/mL
COc1ccc2ccc(=O)oc2c1CC(=O)C(C)C | - | MIC | - | - | - | H37Rv | 200 µg/mL
COC(=O)c1c(C(=O)OC)c2cc(C(=O)OC(C)C)ccn2c1C(=O)c1ccc(Br)cc1 | MDR-MTB | MIC | - | - | resazurin | - | 8 µg/mL
CC1=CC[C@@]2(C)CC[C@@](O)(C(C)C)[C@@H]2[C@@H](OCC(=O)c2ccc(O)cc2)C1 | - | EC90 | - | - | broth dilution | - | 2 µg/mL
CC(=O)Nc1cc(C=O)ccc1Oc1cc(C=O)ccc1O | - | MIC | - | - | - | H37Rv | 250–1000 µg/mL
CC(=O)OCC1OC(Nc2[nH]c(=O)n(C)c(=O)c2-c2csc(N)n2)C(OC(C)=O)C(OC(C)=O)C1OC(C)=O | - | inhibition | 12.5 µg/mL | - | BACTEC | H37Rv | 0%
C=C1C(=O)O[C@@H]2/C=C(\COC(=O)CC(C)C)CC/C=C(\C)CCC12 | - | MIC | - | - | - | - | 16 µg/mL
S=C(S)Nc1ccc(Cl)cc1 | - | MIC | - | - | - | ETA-R | >12.5 µg/mL
O=C1CCCCC/C1=C\c1cccc(Br)c1 | - | inhibition | 12.5 µg/mL | - | broth dilution / resazurin | H37Rv | 0%
CO[C@@H]1C[C@@H](C[C@H]2CC[C@H](C)[C@H]([C@@H](C)C(=O)O)O2)O[C@]2(O[C@](C)([C@H]3CC[C@@](C)([C@@H]4O[C@@H]([C@H]5O[C@@](O)(CO)[C@H](C)C[C@@H]5C)C[C@@H]4C)O3)C[C@H]2C)[C@@H]1C | - | MIC | - | - | - | PAS-R | 1.6 µg/mL
COC(=O)c1cc(OC)c(OC)c(Oc2c(N)cc(C=O)cc2OC)c1 | - | MIC | - | - | - | H37Rv | 62.5–125 µg/mL
COc1cc(-c2cc(=O)c3c(O)cc(O[C@@H]4O[C@H](CO[C@@H]5O[C@@H](C)[C@H](O)[C@@H](O)[C@H]5O)[C@@H](O)[C@H](O)[C@H]4O)cc3o2)ccc1O | - | MIC | - | - | BACTEC | H37Rv | >100 µg/mL
COC(=O)c1ccc(Oc2cc(C(OC(C)=O)OC(C)=O)cc(OC)c2OC(C)=O)cc1 | - | MIC | - | - | - | H37Rv | 31.25–62.5 µg/mL
COc1cc(Cc2cnc(/N=C3\C(=O)N(CN4CCN(c5cc6c(cc5F)c(=O)c(C(=O)O)cn6C5CC5)CC4)c4ccc(Br)cc43)nc2N)cc(OC)c1OC | - | MIC | - | - | - | H37Rv | 3.13 µg/mL
COc1ccccc1Oc1ccc(/C=N/NC(N)=O)cc1[N+](=O)[O-] | - | MIC | - | - | - | H37Rv | 125–250 µg/mL
C=C1CC[C@H]2C(=C)CC[C@H]3C(=C)C(=O)O[C@@H]3[C@@H]12 | - | MIC | - | - | - | - | 8 µg/mL
Cc1cc(=O)oc2cc3occ(C=C4C(=O)NC(=O)NC4=O)c(=O)c3cc12 | - | EC90 | - | - | resazurin | H37Rv | >100 µg/mL
COc1cccc(/C=C2\CCCc3ccccc3C2=O)c1 | - | inhibition | 12.5 µg/mL | - | broth dilution / resazurin | H37Rv | 8%
COc1ccc(C(=O)c2oc3cc4occ(C=C5C(=O)NC(=O)NC5=O)c(=O)c4cc3c2C)cc1 | - | EC90 | - | - | resazurin | H37Rv | >100 µg/mL
NNC(=O)c1ccncc1 | - | EC50 | - | - | - | H37Rv | >1000 µg/mL
Oc1cc(O)cc(/C=C/c2ccc(O)c(O)c2)c1 | - | MIC | - | - | - | - | 128 µg/mL
COc1c(O)cc2oc(-c3ccc(O)cc3)cc(=O)c2c1O | - | MIC | - | - | BACTEC | H37Rv | 100 µg/mL
Cc1cn([C@H]2C=C[C@@H](CO)O2)c(=O)[nH]c1=O | - | EC50 | - | - | - | H37Rv | >6.25 µg/mL
CC(C)(O)[C@H](O)COc1c2occc2cc2ccc(=O)oc12 | - | MIC | - | - | - | H37Rv | 200 µg/mL
Cc1cc(=O)oc2cc3occ(C=C4C(=O)NC(=S)NC4=O)c(=O)c3cc12 | - | EC90 | - | - | resazurin | H37Rv | >100 µg/mL
COc1cccc(/C=C2\CCc3ccccc3C2=O)c1 | - | inhibition | 12.5 µg/mL | - | broth dilution / resazurin | H37Rv | 0%
CC[C@@H](CC[C@@H](C)[C@H]1CCC2C3C(=O)C=C4C[C@@H](O)CC[C@]4(C)C3CC[C@@]21C)C(C)C | - | MIC | - | - | - | H37Rv (ATCC 27294) | 128 µg/mL
COc1ccc(/C=C2\COc3ccccc3C2=O)c(OC)c1 | - | inhibition | 10 µg/mL | - | broth dilution / resazurin | H37Rv | 0%
CO[C@@]12[C@H](COC(=O)NCCO)C3=C(C(=O)C(C)=C(N)C3=O)N1C[C@H]1[C@@H]2N1C | - | MIC | - | - | - | KM-R | 3.1 µg/mL
CCN(CC)CCCN=c1cc2n(-c3ccc(Cl)c(Cl)c3)c3ccccc3nc-2cc1Nc1ccc(Cl)c(Cl)c1 | - | MIC | - | multidrug-resistant | - | 2227 | 0.25 µg/mL
CC[C@H](CC[C@@H](C)[C@H]1CC[C@H]2[C@@H]3CC=C4C[C@@H](O)CC[C@]4(C)[C@H]3CC[C@]12C)C(C)C | - | MIC | - | - | - | H37Rv (ATCC 27294) | >128 µg/mL
COC(=O)Cc1cc([N+](=O)[O-])c(Oc2cc(C=O)cc(OC)c2O)c([N+](=O)[O-])c1 | - | MIC | - | - | - | H37Rv | 250–1000 µg/mL
NS(=O)(=O)c1ccc(N=NC2Sc3nc4ccccc4n3C2=O)cc1 | - | MIC bound | - | - | BACTEC | H37Rv | >12.5 µg/mL
CC12CCC(C3=C(C1=O)[Se](=O)C1=C(O3)C3CCC(C)(C1=O)C3(C)C)C2(C)C | - | MIC | - | - | - | H37Rv | 16.99 µg/mL
NC(=O)c1cnccn1 | - | MIC | - | - | - | Isolate 8251 | 900 µg/mL
O=c1[nH]c2ccccc2n(Cn2nnc3ccccc32)c1=O | - | MIC | - | - | resazurin | H37Rv | 10.8 µg/mL
O=Cc1ccc(O)c(Oc2ccc(C=O)cc2[N+](=O)[O-])c1 | - | MIC | - | - | - | H37Rv | 125 µg/mL
CC[C@H]1C[C@H]2C[C@H]3c4[nH]c5ccc(OC)cc5c4CCN(C2)[C@@H]13 | - | MIC | - | - | - | H37Rv | 50 µg/mL
Cc1c(N=Nc2ccccc2Cl)c(-c2ccccc2)nn1C(=S)S | - | MIC | - | - | BACTEC | H37Rv | 16 µg/mL
CC(C)[C@@H](C)/C=C/[C@@H](C)[C@H]1CCC2[C@@]34C=C[C@]5(C[C@@H](O)CC[C@]5(C)C3CC[C@@]21C)OO4 | - | MIC | - | - | - | H37Rv (ATCC 27294) | 2 µg/mL
CCc1cc(C(N)=S)ccn1 | - | MIC | - | - | - | PETH80 | 20 µg/mL
Oc1ccc(C2=CC(O)c3c(O)cc(O)cc3O2)cc1 | - | MIC | - | - | BACTEC | H37Rv | >100 µg/mL
CCCCCCCCCCCCCC(=O)OCC1OC(O[C@H]2CC[C@@]3(C)C(=CCC4C3CC[C@@]3(C)C4CC[C@@H]3[C@H](C)CC[C@@H](CC)C(C)C)C2)C(O)C(O)C1O | - | MIC | - | - | - | H37Rv (ATCC 27294) | 32 µg/mL
Nc1nc(N)c(N=Nc2ccccc2S(=O)(=O)O)c(=O)[nH]1 | - | inhibition | 12.5 µg/mL | - | BACTEC | H37Rv | 22%
COc1cc(-c2oc3cc(OC)c(OC)c(O)c3c(=O)c2OC)ccc1O | - | MIC | - | - | BACTEC | H37Rv | >100 µg/mL
CCN(CC)CC(=O)N(CC)c1ccc(C)c(Cl)c1 | - | inhibition | 12.5 µg/mL | - | BACTEC | H37Rv | 4%
C[C@H]1COC2(CCN(S(=O)(=O)c3cc(-[n+]4ccc(O)cc4)cc(C(F)(F)F)c3)CC2)O1 | - | MIC | - | - | resazurin | H37Rv | >64 µM
CO[C@H]1/C=C/O[C@@]2(C)Oc3c(C)c(O)c4c(O)c(c(/C=N/N5C(C)CN(Cc6ccccc6)CC5C)c(O)c4c3C2=O)NC(=O)/C(C)=C\C=C\[C@H](C)[C@H](O)[C@@H](C)[C@@H](O)[C@@H](C)[C@H](OC(C)=O)[C@@H]1C | - | MIC | - | - | BACTEC | H37Rv | 2 µg/mL
COc1cccc(/C=C2\CCCCCC2=O)c1 | - | inhibition | 12.5 µg/mL | - | broth dilution / resazurin | H37Rv | 0%
COC(O)C1OC(c2ccccc2)OC2C(CO)OC(c3ccccc3)OC12 | - | inhibition | 12.5 µg/mL | - | BACTEC | H37Rv | -33%
CCOC(=O)C(Cc1ccccc1)NP(=O)(CCC(=O)N1C[C@@H](n2cnc3c(=O)[nH]c(N)nc32)[C@H](OC[C@@H](O)P(=O)(NC(Cc2ccccc2)C(=O)OCC)NC(Cc2ccccc2)C(=O)OCC)C1)NC(Cc1ccccc1)C(=O)OCC | - | MIC90 | - | - | resazurin / fluorescence | H37Ra | 22 µM
CCCN(CCC)N=Nc1c(C(N)=O)n[nH]c1-c1cc2ccccc2o1 | - | inhibition | 12.5 µg/mL | - | BACTEC | H37Rv | 77%
COc1ccc(/C=C2\COc3ccccc3C2=O)cc1 | - | inhibition | 10 µg/mL | - | broth dilution / resazurin | H37Rv | 59%
O=c1[nH]c2ccccc2n(Cn2cnc3ccccc32)c1=O | - | MIC | - | - | resazurin | H37Rv | 10.2 µg/mL
O=c1c(O)c(-c2ccc(O)cc2)oc2cc(O)cc(O)c12 | - | MIC | - | - | BACTEC | H37Rv | >100 µg/mL
COc1c(C)c2nc3ccccc3[nH]c2c2c(=O)ccnc12 | - | inhibition | 6.25 µg/mL | - | resazurin | H37Rv | 98%
OC[C@H]1O[C@@H](Oc2ccc(/C=C/c3cc(O)cc(O)c3)cc2O)[C@H](O)[C@@H](O)[C@@H]1O | - | MIC | - | - | - | - | >128 µg/mL
CC(=O)O[C@H]1[C@H](OC(C)=O)[C@H](OC(C)=O)CO[C@H]1Nn1c(=O)[nH]c2ccccc2c1=O | - | inhibition | 6.25 µg/mL | - | BACTEC | H37Rv | 0%
CC(Oc1ccccc1)C(=O)N/N=C1\CCOc2ccccc21 | - | EC50 | - | - | - | H37Rv | ~40 µg/mL